## Fitness effects across NS2B and the NS3 protease domain of Zika virus

Chain scanned (Zika virus MR766; NS2B from position 2 to 131, then the start of NS3):
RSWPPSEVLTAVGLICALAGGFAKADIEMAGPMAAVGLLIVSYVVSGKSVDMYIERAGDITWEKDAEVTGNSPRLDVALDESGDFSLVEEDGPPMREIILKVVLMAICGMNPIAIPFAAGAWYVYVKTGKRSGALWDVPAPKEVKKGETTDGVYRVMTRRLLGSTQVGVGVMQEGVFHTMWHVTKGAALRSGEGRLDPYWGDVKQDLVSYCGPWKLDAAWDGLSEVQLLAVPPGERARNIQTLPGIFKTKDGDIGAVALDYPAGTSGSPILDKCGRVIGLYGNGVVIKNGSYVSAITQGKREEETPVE

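Libraries of single mutants were passaged as virus pools on Huh-7.5 cells. Deep sequencing gave the change in frequency of each mutant relative to wild type, averaged over three replicate libraries (two for positions 207-308). The aim was to find sites where inhibitor-binding pockets cannot change.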

Scale: log2 effect, wild type = 0; the lower, the more harmful to the virus. Each entry names the wild-type residue, its position and the residue put in its place. This list holds changes to proline only. Six mutants with high scores were retested singly and none clearly outgrew wild type, so positive values are not proof of better growth.

- G120P: -7.19
- A121P: -7.43
- W122P: -6.70
- Y123P: -7.04
- V124P: -7.13
- Y125P: -7.34
- V126P: -6.86
- K127P: -7.97
- T128P: -1.09
- G129P: -1.33
- K130P: -7.12
- R131P: -7.28
- S132P: -6.73
- G133P: -6.71
- A134P: -7.13
- L135P: -7.83
- W136P: -7.46
- D137P: -7.43
- V138P: -5.27
- A140P: -6.50
- K142P: -1.20
- E143P: -1.51
- V144P: -3.24
- K145P: -0.99
- K146P: -1.08
- G147P: -1.15
- E148P: -2.98
- T149P: -6.73
- T150P: -6.26
- D151P: -4.93
- G152P: -6.55
- V153P: -6.54
- Y154P: -6.79
- R155P: -7.18
- V156P: -7.11
- M157P: -6.62
- T158P: -7.21
- R159P: -6.68
- R160P: -7.02
- L161P: -5.09
- L162P: -6.23

The last 4 entries again:

change,log2 effect
R159P,-6.68
R160P,-7.02
L161P,-5.09
L162P,-6.23

Positions 1-103, 104-206 and 207-308 were made and measured as separate libraries. Position 1 still belongs to NS2A. In the paper, -1 or higher counts as tolerated.

The measurements come from Ni et al. 2025 (doi:10.1038/s41467-025-63602-z).